Test results reported in the supplement of paper PMC9931576.
Human monoclonal antibodies against the spike receptor-binding domain (heavy:light variable regions). IC50 against pseudoviruses bearing the spike of naturally observed variants; lower = stronger; >10 µg/ml means not reached at the top dose. No active / inactive call. The stated detection limit is 0.0005 µg/ml; values near or below 0.001 µg/ml lie at the floor of the assay.

B1: BD55-6013 (protein)
chain 1: EVQVVESGGGSAQPGGSLRLACAASGFMFSRYAMSWVRQAPGKGLEWVSVFGGAGGHADYSDSVRGRFTVSRDDFKNTLYLQMNSLRVEDTAVYFCVKGPRSNCDYFESWGQGTLVTVSS
chain 2: DIQMTQSPSTLSASVGDRVTVTCRASQSISRWLAWYQQKPGKAPKLLIYDASNLESGVPSRFRGSGSGTEFTLTISSLQPDDFATYYCQQYNSDMYTFGQGTKLEI
B2: BD55-6015 (protein)
chain 1: QVRLVQSGAEVKKPGDSVKISCKASGDAFNMYGFHWVRQAPGQRFEWMGWINGGNGDTGYSQEFQGRVALTRDPSATTAYMELSSLTSADTAVYYCAREAGGYSSGLIGYWFDYWGQGALVSVSS
chain 2: ETVMTQSPATLSVSPGERAILSCRASQSVSRNLAWYQQKPGQAPRLLIHSASTRATGIPARFSGSGSGTEFTLSISSLESEDFAVYYCQQYNDWPPVTFGQGTKVEIK
B3: BD55-5966 (protein)
chain 1: EVQLVESGGGLVHPGRSLRLSCTASGFTFGDHAMSWVRQAPGKGLEWVGFIRSKAHGGTTEYAASVKGRFTISRDDSKSIAYLQMNSLKTEDTAVYYCTKTEIGGMWAIGYGMDVWGQGTTVTVSS
chain 2: QSVLTQPPSASGTPGQRVTISCSGSSSNIGSNYVYWYQQFPGAAPKLLIYRNNLRPSGVPDRFSGSKSGTSASLAISGLRSEDEADYYCAAWDDSLSGLFGGGTKLTVL
B4: BD55-6027 (protein)
chain 1: EVQLVESGGGLVQPGGSLRLSCVASGFTFSSYDVHWVRQPTGKGLEWVSGIDTAGDTYYAGSVKGRFTISRDNAKSSVYLQMNSLRAGDTGVYYCARAYIYHDVLAGLQTYYYGLDVWGHGTTVTVSS
chain 2: DIQMTQSPSSLSASVGDRVTITCRASQGIGNSLAWVQQKPGKAPKSLIYGASSLQSGVPSKFNGSGSGTDFTLTIISLQPEDFATYYCQQYKSFPLTFGGGTKVEIK
B5: BD55-6032 (protein)
chain 1: QVQLQESGPGLVKPSETLSLTCTVSGGSISSSYWSWIRQSPGKGLEWVGHISHSGSTNYNPSLKGRVTISVDTSKSQFSLKLRSVTAADTAVYYCARDPGNGFNYDYFDSWGQGTLVTVSS
chain 2: DIQMTQSPSSVSASVGDRVTITCRASQGISNWLAWYQQKPGKAPKLLIYGTSILQNGVPSRFSGSGSETEFTLTISSLQPEDFATYFCHQSSGFPPTFGPGTKVDIK
B6: BD55-5997 (protein)
chain 1: QLQLQQWGAGLLRPSETLSLTCGVYGGSFSGYYWSWIRQPPGQGLEWIGEIQHSGDTNYNLSLKSRVTISIDTSKNQLTLKLTSVTAADTAVYYCAREAKATGVTLRRGAFDVWGQGTMVTVSS
chain 2: DIVMTQSPDSLAVSLGERATINCKSSQSVLYFSSDKNYLAWYQHRPGQPPKLLIYWASTRESGVPDRFSGSGSGTDFTLTISNLQAEDVAVYYCQQYYSTPLTFGGGTKVEIK
B7: BD55-5967 (protein)
chain 1: QVELQESGPGLLKPSETLSLTCTVSGDPITSYYWSWIRQPPGKGLEYIGYIYFSGNTNYNPSLKSRVTLSIDTSKNQFSLKLSSVTAADTAIYYCARSPLTGTTRLLDYWGQGTRVTVSS
chain 2: IVMTQSPATLSVSPGETATLSCRASQSVGSNLAWYQQKAGQAPRLLIYGASTRATGIPARFSGSGSGTEFTLIISSLQSADFAVYHCQQYNTWPWTFGPGTKVEIK
B8: BD55-6022 (protein)
chain 1: EVQLLESGGGLVQRGGSLRLSCAASGFTFSTFSSYAMNWVRQAPGKGLEWVSSITSSGDGAFYADSVKGRFTISRDNSKNTLYLQMKSLRADDTAVYYCAKDMGGAVLYDVFDVWGQGTMVTV
chain 2: DIQMTQSPSSLSASVGDRVTITCRASQSISRYLNWYQQKPGKAPRLLIYGASSLQSGVPSRFSGSGSGTDFTLTISSLQPEDFATYYCQQSYISPQLTFGGGTRVEIK
B9: BD55-6024 (protein)
chain 1: EVQLVESGGGLVQPGGSLRLSCAASGFTFRNYAMHWVRQAPGKGLEYVSGISRDGGGTFYADSMKGRFTISRDNSKSTLYLHMGSLRAEDMAVYYCAREATVTMDAHFDHWGQGTLVTVSS
chain 2: DIQMTQSPSSLSASVGDRVTITCRASQTISSYLNWYQHKPGKAPKLLIYVASRLQSGVPSRFSGSGSGTDFTLTISNLQAEDFATYYCQQSYITPQLTFGGGTKVEIK
B10: BD55-6026 (protein)
chain 1: QLHESGPGLVKPSETLSLTCTVSGGSISSSNHYWVWIRQPPGKSPEWIGNVYYSGTTYYNPSLKSRVTISVDTSKNQFSLKLSSVSAADSALYYCARGSGCSATSCQMWAGDHYYYYMDVWGKGTTVTVSS
chain 2: EIIMTQSPATLSVSPGERVTLSCRASQSLSGNLAWYQQKPGQAPRLLIYGASTRATGIPARFSGSGSGTEFTLTISSLQSEDFAVYYCQQYNSWLTFGQGTKVETK
B11: BD55-6009 (protein)
chain 1: QVQLVQSGAEVKKPGASVKISCKASGYPFTTYYIHWVRQAPGQGLEWMGIINAGGGRAFYAQKFQGRVSMTRDTSTSTVYMELSSLTSEDTAVYFCARDGPIGVVGIDYFDYWGQGTLVTASS
chain 2: DIQMTQSPSSLSASVGDKVTISCRASQTISNYLNWYQQKPGKAPKLLIYAASSLQSGVPSRFSGSGSGTDFTLTINSLQPEDFATYYCQQSYNTPPWTFGQGTKVEIK
B12: BD55-1136 (protein)
chain 1: QVQLVQSGAEMKKPGASVKVSCKASGYTFTTYYIHWVRQAPGQGLEWMGVINPSGGGTSLPQKFQGRVTMTRDTSTSTVDMDLSNLRSEDTAVYYCARGSSGLDIVLRWYFDLWGRGTLVTVSS
chain 2: QSVLTQPPSVSGAPGQRVTISCTGSSSNFGAGYDVHWYQQLPGTAPKLLIYSNTNRPSGVPDRFSGSRSGTSASLAITGLQAEDEAHYYCQSFDATLSGSSVVFGGGTKLTVL

molecular target: SARS-CoV-2 Omicron BA.1 spike pseudovirus; assay: pseudovirus neutralization IC50; higher = weaker neutralization
Protocol: (§1)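 Single-round VSV luciferase pseudovirus mixed with antibody dilutions for 1 h and put on Huh-7 cells for about a day; IC50 from the dose curve.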

| Binder | pseudovirus neutralization IC50 [µg/mL] |
| --- | --- |
| B1 | > 10 |
| B2 | > 10 |
| B3 | > 10 |
| B4 | > 10 |
| B5 | > 10 |
| B6 | > 10 |
| B7 | 1.99 |
| B8 | > 10 |
| B9 | > 10 |
| B10 | > 10 |
| B11 | > 10 |
| B12 | > 10 |

molecular target: SARS-CoV-2 Omicron BA.2 spike pseudovirus; assay: as above
Protocol: as §1

| Binder | pseudovirus neutralization IC50 [µg/mL] |
| --- | --- |
| B1 | > 10 |
| B2 | > 10 |
| B3 | > 10 |
| B4 | > 10 |
| B5 | > 10 |
| B6 | > 10 |
| B7 | 1.58 |
| B8 | > 10 |
| B9 | > 10 |
| B10 | > 10 |
| B11 | > 10 |
| B12 | > 10 |

molecular target: SARS-CoV-2 Omicron BA.2.75 spike pseudovirus; assay: as above
Protocol: as §1

| Binder | pseudovirus neutralization IC50 [µg/mL] |
| --- | --- |
| B1 | > 10 |
| B2 | > 10 |
| B3 | > 10 |
| B4 | > 10 |
| B5 | > 10 |
| B6 | > 10 |
| B7 | 0.53 |
| B8 | > 10 |
| B9 | > 10 |
| B10 | > 10 |
| B11 | > 10 |
| B12 | > 10 |

molecular target: SARS-CoV-2 Omicron BA.5 spike pseudovirus; assay: as above
Protocol: as §1

| Binder | pseudovirus neutralization IC50 [µg/mL] |
| --- | --- |
| B1 | > 10 |
| B2 | > 10 |
| B3 | > 10 |
| B4 | > 10 |
| B5 | > 10 |
| B6 | > 10 |
| B7 | > 10 |
| B8 | > 10 |
| B9 | > 10 |
| B10 | > 10 |
| B11 | > 10 |
| B12 | > 10 |

molecular target: SARS-CoV-2 Omicron BQ.1.1 spike pseudovirus; assay: as above
Protocol: as §1

| Binder | pseudovirus neutralization IC50 [µg/mL] |
| --- | --- |
| B1 | > 10 |
| B2 | > 10 |
| B3 | > 10 |
| B4 | > 10 |
| B5 | > 10 |
| B6 | > 10 |
| B7 | > 10 |
| B8 | > 10 |
| B9 | > 10 |
| B10 | > 10 |
| B11 | > 10 |
| B12 | > 10 |

molecular target: SARS-CoV-2 Omicron XBB spike pseudovirus; assay: as above
Protocol: as §1

| Binder | pseudovirus neutralization IC50 [µg/mL] |
| --- | --- |
| B1 | > 10 |
| B2 | > 10 |
| B3 | > 10 |
| B4 | > 10 |
| B5 | > 10 |
| B6 | > 10 |
| B7 | > 10 |
| B8 | > 10 |
| B9 | > 10 |
| B10 | > 10 |
| B11 | > 10 |
| B12 | > 10 |

molecular target: SARS-CoV-2 early D614G spike pseudovirus; assay: as above
Protocol: as §1

| Binder | pseudovirus neutralization IC50 [µg/mL] |
| --- | --- |
| B1 | > 10 |
| B2 | 0.432 |
| B3 | 0.00517 |
| B4 | > 10 |
| B5 | > 10 |
| B6 | > 10 |
| B7 | 0.00323 |
| B8 | > 10 |
| B9 | > 10 |
| B10 | > 10 |
| B11 | > 10 |
| B12 | 0.00195 |
